From ChEMBL document CHEMBL3988442, “University of Dundee, Small-Polar-MMV Screening Library” (2021).

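Phenotypic screen: M. tuberculosis growth, cholesterol and DPPC medium, 4 days; the read-out is not stated. Tested at 500 µM. Higher reads as more growth inhibition (inferred: compounds with an IC50 in retests scored well above the rest). About 18,000 compounds were tested under these conditions; 5% (about 900) showed 50% or more at least once.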

Each number is a percent effect as filed.
The record does not define 0% and 100%; most values in the screen are far below 50% and negative numbers occur (in some assays of this library far below -100).
The entries come from a sample that favours strong results.

| structure | effect |
|---|---|
| `N#Cc1ccccc1C(=O)N1CCOCC(O)C1` (stereo not shown) | -5.654 |
| `O=C1CCC(=O)N1CCOc1cccc(F)c1` | 11.28 |
| `O=C(CSc1ncccc1Br)N1CCCC1` | 73.33 |
| `CN(C)C(=O)c1ccc(CSc2nncs2)cc1` | 36.34 |
| `O=C(NCC1CCCO1)Nc1cn[nH]c1` (stereo not shown) | -6.602 |
| `CO[C@H]1CNCC1NC(=O)Cc1ccc(F)cc1Cl` (stereo partly shown) | -7.525 |
| `CCc1cccc(S(=O)(=O)N2CC[C@H](N)C2)c1` | 13.12 |
| `CC(C)c1nnc2ccc(Cl)nn12` | 8.871 |
| `CN(C)CCNC(=O)CCC(=O)Nc1ccc(Cl)cc1` | 15.65 |
| `OCCn1c(CO)nc2ccccc21` | 11.31 |
| `CC(C1CC1)N(C)CC(=O)Nc1sccc1C(N)=O` (stereo not shown) | -2.131 |
| `C=C(C)CN1CCC(NC(=O)N2CCSCC2)CC1` | 60.92 |
| `CCCn1ccc(CN)n1` | 10.7 |
| `NC(=O)c1ccc(N2CCN(CCCO)CC2)cc1` | 4.175 |
| `COc1cc(-c2cnn(CCC(N)=O)c2)c(Cl)cn1` | -10.76 |
| `Cc1noc(C(C)Nc2ccc3c(c2)CCC(=O)N3)n1` (stereo not shown) | -13.52 |
| `CN(C)C(=O)Cn1c(C(F)(F)F)nc2ccccc21` | -5.554 |
| `Cc1ncccc1CNC(C(N)=O)c1ccc(F)cc1` (stereo not shown) | -13.71 |
| `COCCCN1CCC(CNc2cc(C)nc(N)n2)C1` (stereo not shown) | 2.2 |
| `O=C(NCc1cccc(OCC(F)F)n1)C1CCCN1` (stereo not shown) | -10.91 |
| `N#Cc1ccc(Sc2nnc(N3CCCC3)s2)nc1` | -23.69 |
| `NCc1ccncc1OCC(F)F` | 5.033 |
| `C=C(C)COc1c(Cl)cc(C(N)=O)cc1OC` | 78.29 |
| `NCCS(=O)(=O)NCc1ccc(F)cc1` | 0.06336 |
| `CNC(=O)C1CCCN(C(=O)c2ccc(O)cc2F)C1` (stereo not shown) | 7.45 |
| `Cc1cccc2nc(CN(C)C(=O)CN(C)C)[nH]c12` | -5.608 |
| `Cc1nc(C(=O)NC(C)C(C)C)ccc1C#N` (stereo not shown) | 35.33 |
| `Cc1cc2cc(C(=O)N3CCS(=O)(=O)CC3)ccc2o1` | 8.919 |
| `CC1CN(CCC(=O)Nc2cccnc2)CCCO1` (stereo not shown) | -4.607 |
| `CC(NS(C)(=O)=O)C(=O)NC1Cc2ccccc2C1` (stereo not shown) | -0.02781 |
| `CNC(=O)c1cc(NC)ccn1` | -0.8976 |
| `CNCc1cnn(-c2ccccc2)c1` | -10.8 |
| `CS(=O)(=O)N1CCC(=Cc2ccccc2)CC1` | -8.422 |
| `CSc1cc(NC(=O)CCc2cncc(F)c2)ccn1` | 15.53 |
| `NCc1cccc(-c2nc(-c3ccncc3)no2)c1` | 71.74 |
| `CCNC(=O)CN1CCN(c2cc(C)nc(C)n2)CC1` | 0.961 |
| `COc1ccccc1OCCN1CCN(CCO)CC1` | -4.525 |
| `Cc1nc(C(=O)OCCn2cccn2)cs1` | 12.49 |
| `CN(C)C(=O)CCCn1nnc(-c2ccsc2)n1` | 76.36 |
| `Cc1ccc(CN)n1C` | 75.58 |
| `Cc1nn(C)cc1S(=O)(=O)Nc1ccccn1` | 10.27 |
| `NC(=O)c1cc(NC(=O)N2CCCC2)ccc1Cl` | -3.532 |
| `CS(=O)(=O)Cc1ccc(CN)cc1` | 9.766 |
| `CSCC1CCN(CCC(=O)Nc2cccnc2)CC1` | 7.815 |
| `N#Cc1cnc2ccccc2c1N` | -19.92 |
| `c1cncc(N2CCC3(CCCN3)C2)c1` (stereo not shown) | -12.06 |
| `CS(=O)(=O)NCC1CCCN(c2ccncc2Cl)C1` (stereo not shown) | 24.25 |
| `Cn1c(NC(=O)c2ccccc2I)cc(=O)n(C)c1=O` | -6.809 |
| `CN(C)S(=O)(=O)N1CCC(Oc2ccccc2Cl)CC1` | 72.89 |
| `OC1CCNC2(CCC2)C1` (stereo not shown) | -7.496 |
| `COc1ccc(C(=O)NC2=NCCS2)cn1` | 19.51 |
| `O=C1N(Cc2ccccc2)CCN1S(=O)(=O)Cl` | 72.5 |
| `CCc1cc(C)c(C(=O)Nc2ccc(C(N)=O)nc2)o1` | 95.47 |
| `CCCOC1CCCN(C(=O)CCn2cnnn2)C1` (stereo not shown) | 2.713 |
| `NC(CO)c1nc2ccccc2[nH]1` (stereo not shown) | -19.54 |
| `CCOC(=O)N1CCC(NC(CO)c2ccco2)CC1` (stereo not shown) | 1.097 |
| `CC(C#N)Sc1ccc(S(=O)(=O)N2CCCC2)cn1` (stereo not shown) | -5.251 |
| `CC(C#N)CN(C)c1ncnc2c1cnn2CCO` (stereo not shown) | -7.782 |
| `COC1(CN)CCOC1` (stereo not shown) | 2.462 |
| `CN1CCC(N2CCN(C)c3ccccc3C2)C1=O` (stereo not shown) | 17.12 |
| `CNC(=O)C(C)(O)CN1Cc2ccccc2C1=O` (stereo not shown) | -15.92 |
| `COCC(=O)Nc1cc(OC)c(Br)cn1` | -3.57 |
| `CC(CNC(=O)NC1CCCC1)N1CCOCC1` (stereo not shown) | 14.22 |
| `CC(=O)c1ccn(C)n1` | 10.88 |
| `COc1cc(CNc2ncnc3c2cnn3C)ccn1` | 14.2 |
| `CCCn1nnnc1NCc1ccc2c(c1)OCO2` | 22.19 |
| `O=S(=O)(CC(O)CNCc1ccccn1)c1cccs1` (stereo not shown) | 27.18 |
| `CSc1cccc(NC(=O)N2CCC(O)(CO)C2)c1` (stereo not shown) | 20.97 |
| `NC(CF)c1ccccc1` (stereo not shown) | -0.2981 |
| `NCCS(=O)(=O)N1CCCc2ccccc21` | 18.38 |
| `CCc1ccc(CNc2ccc(CO)cn2)cc1` | 89.12 |
| `CCNC1=NN=C(c2ccc3c(c2)OCCCO3)CS1` | 58.96 |
| `COCC(C)NC(=O)c1ccc(OC)c(F)c1` (stereo not shown) | 33 |

Some entries from above, unchanged:

structure,effect
COCCCN1CCC(CNc2cc(C)nc(N)n2)C1 (stereo not shown),2.2
COCC(C)NC(=O)c1ccc(OC)c(F)c1 (stereo not shown),33
N#Cc1ccc(Sc2nnc(N3CCCC3)s2)nc1,-23.69
COc1cc(-c2cnn(CCC(N)=O)c2)c(Cl)cn1,-10.76
COc1cc(CNc2ncnc3c2cnn3C)ccn1,14.2
CC(=O)c1ccn(C)n1,10.88
N#Cc1ccccc1C(=O)N1CCOCC(O)C1 (stereo not shown),-5.654
Cc1cccc2nc(CN(C)C(=O)CN(C)C)[nH]c12,-5.608
CCc1cc(C)c(C(=O)Nc2ccc(C(N)=O)nc2)o1,95.47